From publication PMC9914633 (International Journal of Environmental Research and Public …, 2023) come the findings set out here.

The subject of the data set is NCCc1c[nH]c2ccc(O)cc12. Kind of data set: purified protein. The settings on record: acetyl-CoA 0.5 mM, 100 mM potassium phosphate pH 8.8, 30 °C, 30 min, GST fusion.

In the case of “xoSNAT3 (GST-xoSNAT3) (Xanthomonas oryzae pv. oryzae)”, the Michaelis constant (Km) amounted to 709.98 µM.

In general, Km refers to the concentration of substrate that gives half-maximal velocity.
